For test [1], the target named is T1, TraR (Agrobacterium tumefaciens, UniProt P33905).
The target of test [2] is T2, LasR (Pseudomonas aeruginosa, UniProt P25084). Conditions: for IC50: read-out: LasR IC50, determined against 7.5 nM OdDHL.
Test [3] has as its target T2, LasR.
The target of test [4] is T1, TraR. This is another data set of the same source.

Sequences of proteins named here, by UniProt entry; tags and fusion partners are left off.
UniProt P33905, whole entry: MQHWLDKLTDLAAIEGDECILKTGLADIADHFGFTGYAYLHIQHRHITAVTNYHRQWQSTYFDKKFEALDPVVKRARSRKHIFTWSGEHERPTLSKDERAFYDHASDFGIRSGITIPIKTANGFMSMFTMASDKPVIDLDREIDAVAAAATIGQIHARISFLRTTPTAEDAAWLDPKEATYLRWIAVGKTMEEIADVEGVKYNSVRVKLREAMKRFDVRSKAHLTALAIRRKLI
UniProt P25084, whole entry: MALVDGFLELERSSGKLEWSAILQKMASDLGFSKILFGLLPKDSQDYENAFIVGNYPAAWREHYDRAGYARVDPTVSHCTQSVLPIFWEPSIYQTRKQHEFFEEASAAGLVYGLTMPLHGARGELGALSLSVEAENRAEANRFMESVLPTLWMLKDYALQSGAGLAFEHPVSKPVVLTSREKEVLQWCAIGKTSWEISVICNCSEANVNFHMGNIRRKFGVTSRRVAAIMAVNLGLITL

SMILES strings stand for the structures. Where “and” joins values, the source holds several entries; their conditions need not be identical. Equal values may be shown once. Some results are limits rather than exact numbers.

The IC50 is the concentration at which inhibition is half-maximal. For `O=C(Cc1cccc(Cl)c1)N[C@H]1CCOC1=O`, the “A. tumefaciens-TraR Activation [%]” value in test [1] (10 μM ligand, A. tumefaciens WCF47 (pCF372), normalized to OOHL) was found to be 0%. For the same molecule, in test [2], the IC50 is 3.97 µM. As to `O=C(Cc1cccc(Br)c1)N[C@H]1CCOC1=O`, the IC50 in test [2] amounted to 4.06 µM. Besides, in test [3] (5 μM ligand, E. coli DH5α (pJN105L pSC11), normalized to OdDHL), the “E. coli-LasR Activation [%]” value is 3% and 2%.

As usually defined, the EC50 is the midpoint of the concentration-response curve. On to `CC(C)(C)OC(=O)Nc1ccc(CC(=O)N[C@H]2CCOC2=O)cc1`, for which, in test [3] (read-out: LasR EC50), the EC50 was over 200 µM. With `CCCCCC(=O)CC(=O)N[C@H]1CCOC1=O` [compound 1, N-(3-oxo-octanoyl)-L-homoserine lactone], the “A. tumefaciens-TraR Inhibition [%]” value in test [4] (10 μM synthetic ligand against 100 nM OOHL, A. tumefaciens WCF47 (pCF372), normalized to OOHL) was found to be 59%. Further, the EC50 in test [1] (read-out: TraR EC50) was found to be 250 nM. Besides, the “LasR: concentration at which the compound elicits its maximal inhibition (value in parentheses)” value in test [2] (against 7.5 nM OdDHL, dose response curve did not reach 100% inhibition) turned out to be 2.0 µM. For `O=C(CCCc1ccccc1)N[C@H]1CCOC1=O`, in test [4] (read-out: TraR IC50, determined against 100 nM OOHL), the IC50 was found to be 1120 nM.

(Values after patent publication US7910622B2, “Modulation of bacterial quorum sensing with synthetic ligands” (Wisconsin Alumni Research Foundation, priority 2007, dated 2011).)
